Experimental findings from published antibiotic growth screens (doi:10.1038/s41589-023-01349-8) are described below.

SMILES strings stand for the structures. This is one part of the list.

For this assay, the system named is A. baumannii ATCC 17978. The assay can be described thus: relative growth (fraction of control); higher = less inhibition. As to conditions: 50 µM.
Turning to `CNC(Cc1c[nH]c2ccccc12)C(=O)O` (stereo unspecified), the relative growth was 0.92.
